Target: CMG2_38–218 (Homo sapiens, UniProt P58335)
Test: Microscale thermophoresis (MST) binding to CMG2
Conditions: relative to CLRFT

By UniProt entry, the sequences of proteins in these tests, tags left out. Residues count along the entry.
UniProt P58335, 38-218 limits assumed: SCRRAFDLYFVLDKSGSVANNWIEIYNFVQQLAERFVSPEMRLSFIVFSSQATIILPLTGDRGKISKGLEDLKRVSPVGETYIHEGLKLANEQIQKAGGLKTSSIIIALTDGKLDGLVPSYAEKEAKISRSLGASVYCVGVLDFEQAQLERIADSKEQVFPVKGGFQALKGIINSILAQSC

| SMILES | fold reduction in binding affinity for CMG2 (partly printed as reduction in Kd) versus CLRFT | fold increase in affinity for CMG2 versus CLRFT |
| --- | --- | --- |
| CC(C)C[C@H](NC(=O)[C@@H](N)CS)C(=O)N[C@@H](CCCNC(=N)N)C(=O)N[C@@H](Cc1ccc(C#N)cc1)C(=O)N[C@H](C(=O)O)[C@@H](C)O | 2 fold | – |
| CC(C)C[C@H](NC(=O)[C@@H](N)CS)C(=O)N[C@@H](CCCNC(=N)N)C(=O)N[C@@H](Cc1ccc(Cl)cc1)C(=O)N[C@H](C(=O)O)[C@@H](C)O | – | 2 fold |
| CC(C)C[C@H](NC(=O)[C@@H](N)CS)C(=O)N[C@@H](CCCNC(=N)N)C(=O)N[C@@H](Cc1ccc(O)cc1)C(=O)N[C@H](C(=O)O)[C@@H](C)O | 3 fold | – |
| CC(C)C[C@H](NC(=O)[C@@H](N)CS)C(=O)N[C@@H](CCCNC(=N)N)C(=O)N[C@@H](CCc1ccccc1)C(=O)N[C@H](C(=O)O)[C@@H](C)O | 2.5 fold | – |
| CC(C)C[C@H](NC(=O)[C@@H](N)CS)C(=O)N[C@@H](CCCNC(=N)N)C(=O)N[C@H](C(=O)N[C@H](C(=O)O)[C@@H](C)O)c1ccccc1 | 2 fold | – |
